Experiment in all cases: EMSA; 37 C
The target of data set [1] is Cpf1 E1006A (Francisella novicida U112, UniProt A0Q7Q2 SEQ:1-1300, E1006A).
The target of data set [2] is Cpf1 D917A (Francisella novicida U112, UniProt A0Q7Q2 SEQ:1-1300, D917A).
The target in data set [3] is Cpf1 D1255A (Francisella novicida U112, UniProt A0Q7Q2 SEQ:1-1300, D1255A).

Drawing on patent US20190048340 (CRISPR Therapeutics AG, published 2019), this text covers Kd for one molecule.

B1:  (ssRNA ; dsDNA)
chain 1: GGGUCUAAGAACUUUAAAUAAUUUCUACUGUUGUAGAUAGAUUAAAAGGUAAUUCUAUCUUGUUGAG
chain 2: AGCTGTAGCAAATATTAATCATATAGAAGAAAGCTCAGATCTCAACAAGATAGAATTACCTTTTAATCTTAAATTATTATATCCAGAAACTATTGATGGTAATTTACTTATC
chain 3: AGCTGATAAGTAAATTACCATCAATAGTTTCTGGATATAATAATTTAAGATTAAAAGGTAATTCTATCTTGTTGAGATCTGAGCTTTCTTCTATATGATTAATATTTGCTAC
For the molecule B1, the dissociation constant Kd in data set [1] was determined as 40 nM; in data set [2] it was 48 nM; in data set [3], 52 nM.
